The values below are quoted from earlier work in article PMC9552964.

pKd: −log10 of the molar value.

The target of this data set is HIV-1 capsid (Human immunodeficiency virus 1) (UniProt O93182). Description: TIRF microscopy.

What is called pKd is the Kd on a negative log10 scale, so that one unit is a factor of ten. With Cyclophilin A (from UniProt P62937), the negative-log Kd (pKd) is 5.00.
